Measured values from PMC10508830 (Antiviral research, 2023).
pIC50: −log10 of the molar value.

Molecular target: NA of A/fox/Michigan/22-014536-004/2022 (del50-70) (Influenza A virus, UniProt Q9Q0U7)
Format: biochemical, influenza A(H5N1) virus
Details: read-out: Mean IC50 ± SD

**Q.** With oseltamivir carboxylate as the substance, how does the pIC50 read?
**A.** Its pIC50 is 8.59.
